The test has as its target hamster PrP conversion reaction (PrPsen to PrPres) (Mesocricetus auratus, UniProt P04273). The experiment in a line: Cell-free conversion assay (hamster 35S-PrPsen + HaPrPres, PK digestion, SDS-PAGE phosphor imaging). The class given is biochemical, Syrian golden hamster. The note with it: for inhibition of the conversion reaction (in words): hamster PrP, peptide concentrations up to 0.8 mM.

With `CC(C)C[C@H](NC(=O)CNC(=O)CNC(=O)[C@@H](NC(=O)[C@@H](NC(=O)[C@H](C)NC(=O)CN)C(C)C)C(C)C)C(=O)NCC(=O)NCC(=O)N[C@@H](Cc1ccc(O)cc1)C(=O)O`, the IC50 was 550 µM and the “inhibition of the conversion reaction (in words)” value is “able to inhibit the formation of PrPres”. As for `CSCC[C@H](NC(=O)[C@H](C)NC(=O)[C@H](CO)NC(=O)CNC(=O)[C@H](CC(C)C)NC(=O)[C@H](CCSC)NC(=O)[C@H](Cc1ccc(O)cc1)NC(=O)CNC(=O)CNC(=O)[C@H](CC(C)C)NC(=O)CNC(=O)CNC(=O)[C@@H](NC(=O)[C@@H](NC(=O)[C@H](C)NC(=O)CN)C(C)C)C(C)C)C(=O)N[C@@H](CO)C(=O)N[C@@H](CCCNC(=N)N)C(=O)N1CCC[C@H]1C(=O)N[C@@H](CCSC)C(=O)N[C@@H](CCSC)C(=O)N[C@@H](Cc1c[nH]cn1)C(=O)N[C@@H](Cc1ccccc1)C(=O)O`, the IC50 was determined as 120 µM and the “inhibition of the conversion reaction (in words)” value is “nearly as effective as P113-141”.

As for `CSCC[C@H](NC(=O)[C@H](C)NC(=O)[C@H](CO)NC(=O)CNC(=O)[C@H](CC(C)C)NC(=O)[C@H](CCSC)NC(=O)[C@H](Cc1ccc(O)cc1)NC(=O)CNC(=O)CNC(=O)[C@H](CC(C)C)NC(=O)CNC(=O)CNC(=O)[C@@H](NC(=O)[C@@H](NC(=O)[C@H](C)NC(=O)CNC(=O)[C@H](C)NC(=O)[C@H](C)N)C(C)C)C(C)C)C(=O)N[C@@H](CO)C(=O)N[C@@H](CCCNC(=N)N)C(=O)N1CCC[C@H]1C(=O)N[C@@H](CCSC)C(=O)N[C@@H](CCSC)C(=O)N[C@@H](Cc1c[nH]cn1)C(=O)N[C@@H](Cc1ccccc1)C(=O)O`, the IC50 stood at 80 µM. Still for that read-out and setting: the same measure for `CSCC[C@H](NC(=O)[C@H](C)NC(=O)[C@H](CO)NC(=O)CNC(=O)[C@H](CC(C)C)NC(=O)[C@H](CCSC)NC(=O)[C@H](Cc1ccc(O)cc1)NC(=O)CNC(=O)CNC(=O)[C@H](CC(C)C)NC(=O)CNC(=O)CNC(=O)[C@@H](NC(=O)[C@@H](NC(=O)[C@H](C)NC(=O)CNC(=O)[C@H](C)NC(=O)[C@H](C)NC(=O)[C@H](C)NC(=O)[C@H](C)N)C(C)C)C(C)C)C(=O)N[C@@H](CO)C(=O)N[C@@H](CCCNC(=N)N)C(=O)N1CCC[C@H]1C(=O)N[C@@H](CCSC)C(=O)N[C@@H](CCSC)C(=O)N[C@@H](Cc1c[nH]cn1)C(=O)N[C@@H](Cc1ccccc1)C(=O)O`: 40 µM.

What is called IC50 is the concentration at which inhibition is half-maximal.

Source of the values: patent publication US6355610B2 (priority 1998, dated 2002).
